# Share of PSTVd loop 6 variants by leaf site

Reference: Wu et al. 2024, doi:10.1371/journal.ppat.1012142.

Region: loop 6 of PSTVd (intermediate strain), upper and lower strand joined, each 5' to 3', the first 5 letters being the upper strand, closing pairs included. Wild type: UGACCGCGAG. Varied positions (N): UNNNCGNNNG.

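A pool of all variants was put on leaves of three Nicotiana benthamiana plants. Progeny were sequenced from the inoculated region (day 5), the margin of the inoculated leaf (day 10) and systemic leaves (day 12).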

Numbers give reads per thousand; 0 = not seen among the reads, higher = more abundant.
Each site shows the three plants.
"Pool" is the share in the plasmid pool used as inoculum, on the same scale.
The inoculated region was read from the minus strand, the other sites from the plus strand.
IR is the inoculated region, LM the leaf margin, Sys the systemic leaves.

sequence,pool,IR,LM,Sys
UAUGCGCCGG,0.170,0.0521 0.0719 0.0553,0 0 0.0232,0 0 0
UAUGCGCCUG,0.209,0.139 0.0898 0.0922,0 0 0.0232,0 0 0
UAUGCGCGAG,0.157,0.122 0.0539 0.166,0.138 0 0,0.0180 0.0202 0.0820
UAUGCGCGCG,0.144,0.0869 0.0359 0.0738,0 0 0.0232,0 0 0
UAUGCGCGGG,0.248,0.174 0.126 0.111,0.0276 0 0,0 0 0
UAUGCGCGUG,0.144,0.104 0.108 0.111,0.0276 0 0.0232,0 0 0
UAUGCGCUAG,0.131,0.191 0.0719 0.0738,0 0 0,0 0 0
UAUGCGCUCG,0.222,0.0695 0.0719 0.0553,0 0 0,0 0 0
UAUGCGCUGG,0.183,0.122 0.126 0.0184,0 0 0.0232,0 0 0
UAUGCGCUUG,0.288,0.0174 0.108 0.111,0 0 0,0 0 0
UAUGCGGAAG,0.105,0.0521 0.0539 0.129,0.0276 0 0,0 0 0
UAUGCGGACG,0.261,0.139 0.126 0.0369,0 0 0,0 0 0
UAUGCGGAGA,0.0131,0 0 0,0 0 0,0 0 0
UAUGCGGAGG,0.183,0.104 0.0719 0.0922,0.0276 0 0,0 0 0
UAUGCGGAUG,0.301,0.0869 0.0359 0.0738,0 0 0.0232,0 0 0
UAUGCGGCAG,0.131,0.0869 0.0180 0.0738,0 0 0,0 0 0
UAUGCGGCCG,0.118,0.0869 0.0719 0.0184,0.0276 0 0,0 0 0
UAUGCGGCGG,0.235,0.0695 0.0180 0.0738,0 0 0,0 0 0
UAUGCGGCUG,0.131,0.139 0.126 0.0922,0 0 0,0 0 0
UAUGCGGGAG,0.118,0.104 0.108 0.0369,0 0 0,0 0 0
UAUGCGGGCG,0.0915,0.0869 0.0719 0.0184,0 0 0,0 0 0
UAUGCGGGGG,0.0915,0.139 0.0719 0.111,0 0 0.0464,0 0 0
UAUGCGGGUG,0.275,0.104 0.0539 0.0738,0 0 0,0 0 0
UAUGCGGUAG,0.183,0.122 0.0719 0.0184,0 0 0,0 0 0
UAUGCGGUCG,0.235,0.0869 0.144 0.0369,0 0 0.0232,0 0 0
UAUGCGGUGG,0.170,0.174 0.0539 0.0922,0 0 0,0 0 0
UAUGCGGUUG,0.222,0.0174 0 0.0553,0 0 0.0232,0 0 0
UAUGCGUAAG,0.144,0.104 0.0539 0.129,0 0 0,0 0 0
UAUGCGUACG,0.196,0.0695 0.0898 0.0922,0 0 0,0 0 0
UAUGCGUAGG,0.131,0.0695 0.126 0.0369,0 0 0.0232,0 0 0
UAUGCGUAUG,0.275,0.0869 0.0898 0.0369,0.166 0 0,0 0 0
UAUGCGUCAG,0.248,0.782 0.862 0.627,0.0276 0 0,0 0 0
UAUGCGUCCG,0.170,0.0869 0.0539 0.111,0 0 0.0232,0 0 0
UAUGCGUCGG,0.157,0.0695 0.0539 0.0922,0.0552 0 0,0 0 0
UAUGCGUCUG,0.327,0.191 0.0719 0.0184,0 0 0,0 0 0
UAUGCGUGAG,0.196,0.156 0.162 0.129,0.0276 0 0.0232,0 0 0
UAUGCGUGCG,0.170,0.0695 0.0898 0.0369,0.0276 0 0,0 0 0
UAUGCGUGGG,0.183,0.0348 0.0898 0.0369,0 0 0,0 0 0
UAUGCGUGUG,0.157,0.0695 0.0539 0.0922,0 0 0.0232,0 0 0
UAUGCGUUAG,0.366,0.156 0.0359 0.0553,0.0276 0 0,0 0 0
UAUGCGUUCG,0.248,0.0869 0.0539 0.0184,0 0 0,0 0 0
UAUGCGUUGG,0.275,0.0174 0.108 0.0738,0 0 0.0232,0 0 0

A selection of 4 entries from above:

sequence	pool	IR	LM	Sys
UAUGCGGAAG	0.105	0.0521 0.0539 0.129	0.0276 0 0	0 0 0
UAUGCGGGUG	0.275	0.104 0.0539 0.0738	0 0 0	0 0 0
UAUGCGUGUG	0.157	0.0695 0.0539 0.0922	0 0 0.0232	0 0 0
UAUGCGUAAG	0.144	0.104 0.0539 0.129	0 0 0	0 0 0

Sequences that differ at fixed positions probably stem from PCR or sequencing errors, and defective variants can be carried along by functional ones.
Samples held 36,220 to 57,551 reads, so the smallest values rest on one or two reads.
Wild type was 20.7 per thousand in the pool and the most common sequence in every sample (inoculated region 195, 198, 203; leaf margin 629, 591, 734; systemic leaves 942, 870, 868).